{
  "source": "patent US10758467B2",
  "about": "“Highly substantive water-soluble UV absorbers and process for preparation thereof” (GALAXY SURFACTANTS LTD., priority 2018, dated 2020)",
  "assay": "Substantivity to hair through rinse-off conditioner formulation (deposition on hair, re-extracted and quantified by UV spectroscopy)",
  "conditions": "rinse-off conditioner with equimolar quantities (0.0015 gmoles) of UV absorber, 1.5 g hair tress, extracted by hot ethanol",
  "data": [
    {"smiles": "COc1ccc(C=CC(=O)NCCC[N+](C)(C)CC(O)C[N+](C)(C)C)cc1.[Cl-].[Cl-]", "note": "(centres unmarked) [Example 2, p-methoxy cinnamidopropyl (2-hydroxypropyl trimethyl ammonium chloride) dimonium chloride]", "values": [
      {"measurement": "Relative Substantivity", "value": "1.65 Mg/1.5 g of hair"}
    ]},
    {"smiles": "COc1ccc(C=CC(=O)NCCC[N+](C)(C)CC(O)CO)cc1.[Cl-]", "note": "(centres unmarked) [Example 5, p-methoxy cinnamidopropyl 2,3-dihydroxy propyl dimonium chloride]", "values": [
      {"measurement": "Relative Substantivity", "value": "0.44 Mg/1.5 g of hair"}
    ]}
  ]
}
